Measured values: patent US20090186842, “Methods and compositions for inhibition of viral replication” (published 2009)

Key:
[1] = molecular target: T1, TIA-1b (rTIA-1) (Mus musculus) (UniProt P52912); assay: EMSA; conditions: purified recombinant protein, protein details: C-terminal His6, label: 32P
T1 sequence (looked up, limits assumed): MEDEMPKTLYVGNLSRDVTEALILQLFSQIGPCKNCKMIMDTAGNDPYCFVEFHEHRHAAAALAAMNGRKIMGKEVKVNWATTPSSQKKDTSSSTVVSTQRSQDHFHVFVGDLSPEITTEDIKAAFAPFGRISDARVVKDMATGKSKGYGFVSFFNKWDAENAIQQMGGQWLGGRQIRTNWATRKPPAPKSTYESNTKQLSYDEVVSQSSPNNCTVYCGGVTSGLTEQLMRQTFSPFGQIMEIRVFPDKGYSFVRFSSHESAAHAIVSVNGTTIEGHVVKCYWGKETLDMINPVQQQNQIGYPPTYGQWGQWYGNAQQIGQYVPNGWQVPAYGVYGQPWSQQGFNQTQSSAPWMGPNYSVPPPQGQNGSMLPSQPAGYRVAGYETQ

[2] = molecular target: T2, TIARa (rTIAR) (Mus musculus) (UniProt P70318); assay: EMSA; conditions: purified recombinant protein; protein details: C-terminal His6; label: 32P; variant of WNV3'(-)SL RNA
T2 sequence (looked up, limits assumed): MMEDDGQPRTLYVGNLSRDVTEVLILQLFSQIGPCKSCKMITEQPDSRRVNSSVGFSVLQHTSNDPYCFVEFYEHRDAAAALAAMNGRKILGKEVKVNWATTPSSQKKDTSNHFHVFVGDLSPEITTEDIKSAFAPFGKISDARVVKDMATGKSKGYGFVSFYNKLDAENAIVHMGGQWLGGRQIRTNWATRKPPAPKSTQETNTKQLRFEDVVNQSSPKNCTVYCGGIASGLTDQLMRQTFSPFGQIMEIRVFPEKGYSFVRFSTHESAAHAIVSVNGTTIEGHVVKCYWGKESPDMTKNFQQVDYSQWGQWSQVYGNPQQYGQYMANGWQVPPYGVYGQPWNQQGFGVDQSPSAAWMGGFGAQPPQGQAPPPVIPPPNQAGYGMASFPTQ

[3] = tested on: TIA-1 (p42); assay: binding assay; conditions: UV crosslinking then anti-TIA-1 immunoprecipitation; weaker band than TIAR; protein in an extract; label: 32P
[4] = tested on: TIAR (p42); assay: binding assay; conditions: UV crosslinking then anti-TIAR immunoprecipitation; also RNA affinity column and MS identification; protein in an extract; label: 32P

| Sequence | binding result ([1]; variant of WNV3'(-)SL RNA) | binding result [2] | binding result ([1]; 50-900 nM protein, 0.2 nM RNA, 1 mM MgCl2, 30 mM KCl, RT) | binding result [3] | binding result [4] |
| --- | --- | --- | --- | --- | --- |
| CAGCUCGCACCGUGUAAAACGUUGAAAAAAAAAACAAACACUACUAAGUUUGUCAGCUCACACAGGCGAACUACU [L1+L2->As] | binds | binds | – | – | – |
| CAGCUCGCACCGUGUAAAACGUUGUUAAUCCUCACAAACACUACUAAGUUUGUCAGCUCACACAGGCGAACUACU [L1->As] | binds | binds | – | – | – |
| CAGCUCGCACCGUGUAAGUUGUUAAACAAACACUACUAAGUUUGUCAGCUCACACAGGCGAACUACU [delta L1, delta L2 with U25, U26, A27, A28 restored] | binds | binds | – | – | – |
| CAGCUCGCACCGUGUAAGUUGUUAACAAACACUACUAAGUUUGUCAGCUCACACAGGCGAACUACU [delta L1, delta L2 with U25, U26, A27 restored] | binds | binds | – | – | – |
| CAGCUCGCACCGUGUUAAUUGUUGAAAAAAAAAACAAACACUACUAAGUUUGUCAGCUCACACAGGCGAACUACU [L2->As] | binds | binds | – | – | – |
| CAGCUCGCACCGUGUUAAUUGUUGUUAAUCCUCACAAACAAAAAAAAGUUUGUCAGCUCACACAGGCGAACUACU [L3->As] | binds | binds | – | – | – |
| CAGCUCGCACCGUGUUAAUUGUUGUUAAUCCUCACAAACACUACGUUUGUCAGCUCACACAGGCGAACUACU [delta L3 (UAA deleted)] | binds | binds | – | – | – |
| CAGCUCGCACCGUGUUAAUUGUUGUUAAUCCUCACAAACACUACUAAGUUUGUCAGCUCACACAGGCGAACUACU [WNV3'(-)SL RNA] | – | – | binds | – | – |
| CAGCUCGCACCGUGUUAAUUGUUGUUAAUCCUCACAAACCCCCCCCCGUUUGUCAGCUCACACAGGCGAACUACU [L3->Cs] | binds | binds | – | – | – |
| CCCCAGCUCGCACCGUGUUAAUUGUUGUUAAUCCUCACAAACACUACUAAGUUUGUCAGCUCACACAGGCGAACUACU [WNV 3'(-)SL RNA with 5' CCC] | – | – | – | binds | binds |

The exact form of at least one protein or probe is not confirmed. For some of these results: Where cells or extracts were used, other partners may take part. For some of these results: Protein sequences can lack the tags named with them.
